A mixed list of measured activities; the numbers were collected in NIAID ChemDB.

Common to all: growth or infection tests; organism: Aspergillus niger; endpoint: MIC

An empty or dashed field is not shown. a–b is a range or a potency band. Conditions beyond the fields shown may differ between rows.

Cc1cccc(C(=O)OC2CC(C)CCC2C(C)C)c1 ; value: 9.33 µM
CCN=C(Nc1ccc(Br)cc1)N(CC)c1nc2ccc(Br)cc2s1 ; value: 60–80 µg/mL
O=C(NN1C(=O)/C(=C\c2cccc(Br)c2)SC1c1ccccc1)c1ccc(-c2ccccc2)cc1 ; strain or isolate: MTCC 8189 ; value: 6.25 µg/mL
Cc1nn(-c2ccccc2)c2c1C(c1ccc(F)cc1)C(C#N)=C(N)O2 ; strain or isolate: MTCC 282 ; value: 500 µg/mL
CCn1sc(=Nc2ccc(C)cc2)n(CC)c1=Nc1ccc(C)cc1 ; value: 100–120 µg/mL
CCOC(=O)C1/C(=N/Nc2ccc([N+](=O)[O-])cc2[N+](=O)[O-])C=C(c2ccc3ccccc3c2)CC1c1ccc(Br)cc1 ; strain or isolate: Clinical isolates ; value: 6.25 µg/mL
Cc1ccc(C(=O)OC2CC(C)CCC2C(C)C)cc1 ; value: 9.12 µM
Clc1ccc(CO/N=C2/c3ccc(Cl)cc3OCC2n2cncn2)cc1 ; strain or isolate: ATCC 16401 ; value: 64 µg/mL
OC(Cn1cncn1)(Cn1cncn1)c1ccc(F)cc1F ; strain or isolate: MTCC 1881 ; value: 10 µg/mL
Clc1ccc(CO/N=C2/c3ccccc3OCC2n2cnnc2)cc1 ; strain or isolate: ATCC 16401 ; value: 16 µg/mL
CC1CCC(C(C)C)C(OC(=O)c2cccc([N+](=O)[O-])c2)C1 ; value: 5.13 µM
CCn1sc(=Nc2ccc(C(C)=O)cc2)n(CC)c1=Nc1ccc(C(C)=O)cc1 ; value: 80–100 µg/mL
Cc1nn(-c2ccccc2)c2c1C(c1cccc(Cl)c1)c1c(nc(=S)[nH]c1N)O2 ; strain or isolate: MTCC 282 ; value: 1000 µg/mL
COc1ccc(/C=C2/SC(c3cccc(Br)c3)N(NC(=O)c3ccc(-c4ccccc4)cc3)C2=O)cc1 ; strain or isolate: MTCC 8189 ; value: 3.12 µg/mL
CC1CCC(C(C)C)C(OC(=O)c2ccccc2)C1 ; value: 12.02 µM
Cc1nn(-c2ccccc2)c2c1C(c1cccc([N+](=O)[O-])c1)c1c(nc(=O)[nH]c1N)O2 ; strain or isolate: MTCC 282 ; value: 500 µg/mL
COc1ccccc1C(=O)OC1CC(C)CCC1C(C)C ; value: 8.51 µM
CCn1sc(=Nc2ccc(OC)cc2)n(CC)c1=Nc1ccc(OC)cc1 ; value: 40–60 µg/mL
O=C(NN1C(=O)/C(=C\c2cccc([N+](=O)[O-])c2)SC1c1cccc(Br)c1)c1ccc(-c2ccccc2)cc1 ; strain or isolate: MTCC 8189 ; value: 3.12 µg/mL
Cc1ccc(C2c3c(nc(=O)[nH]c3N)Oc3c2c(C)nn3-c2ccccc2)cc1 ; strain or isolate: MTCC 282 ; value: 500 µg/mL
O=C(NN1C(=O)/C(=C\c2ccc(Cl)cc2)SC1c1cccc(Br)c1)c1ccc(-c2ccccc2)cc1 ; strain or isolate: MTCC 8189 ; value: 3.12 µg/mL
Clc1ccc(CO/N=C2/c3ccc(Cl)cc3OCC2n2cnnc2)cc1 ; strain or isolate: ATCC 16401 ; value: 64 µg/mL
CCOC(=O)C1/C(=N/Nc2ccc([N+](=O)[O-])cc2[N+](=O)[O-])C=C(c2ccc3ccccc3c2)CC1c1ccc(C)cc1 ; strain or isolate: Clinical isolates ; value: 25 µg/mL
Clc1cccc(Cl)c1CO/N=C1/c2ccccc2OCC1n1cncn1 ; strain or isolate: ATCC 16401 ; value: 64 µg/mL
Cc1ccc(C2c3c(nc(=S)[nH]c3N)Oc3c2c(C)nn3-c2ccccc2)cc1 ; strain or isolate: MTCC 282 ; value: >1000 µg/mL
c1ccc(CO/N=C2/c3ccccc3OCC2n2cncn2)cc1 ; strain or isolate: ATCC 16401 ; value: 32 µg/mL
Cc1nn(-c2ccccc2)c2c1C(c1cccc(Br)c1)c1c(nc(=S)[nH]c1N)O2 ; strain or isolate: MTCC 282 ; value: 500 µg/mL
C/C(=N\NC(=S)Nc1cccc([N+](=O)[O-])c1)c1c(O)ccc2c(C)cc(=O)oc12 ; value: 10 µg/mL
Clc1ccc2c(c1)OCC(n1cncn1)/C2=N\OCc1ccc(Cl)c(Cl)c1 ; strain or isolate: ATCC 16401 ; value: 32 µg/mL
Cc1nn(-c2ccccc2)c2c1C(c1ccc(F)cc1)c1c(nc(=O)[nH]c1N)O2 ; strain or isolate: MTCC 282 ; value: 500 µg/mL
COc1ccc(Cc2cn(Cc3ccc(O)cc3)c(=N)n2C)cc1 ; strain or isolate: ATCC 9642 ; value: >100 µg/mL
CCOC(=O)C1/C(=N/Nc2ccc([N+](=O)[O-])cc2[N+](=O)[O-])C=C(c2ccc3ccccc3c2)CC1c1ccccc1 ; strain or isolate: Clinical isolates ; value: 100 µg/mL
C[C@H]1N(C(=O)c2ccc(C(F)(F)F)cc2)CCO[C@@]1(Cn1cncn1)c1ccc(F)cc1F ; strain or isolate: Isolate 2 ; value: 100 µg/mL
CC1CCC(C(C)C)C(OC(=O)c2ccc([N+](=O)[O-])cc2)C1 ; value: 6.61 µM
CCN=C(Nc1ccc(OCC)cc1)N(CC)c1nc2ccc(OCC)cc2s1 ; value: 20–40 µg/mL
Cc1nn(-c2ccccc2)c2c1C(c1ccccc1)c1c(nc(=S)[nH]c1N)O2 ; strain or isolate: MTCC 282 ; value: >1000 µg/mL
CCn1sc(=Nc2cccc(C)c2)n(CC)c1=Nc1cccc(C)c1 ; value: 120–150 µg/mL
CCOC(=O)C1/C(=N/Nc2ccc([N+](=O)[O-])cc2[N+](=O)[O-])C=C(c2ccc3ccccc3c2)CC1c1ccc(OC)cc1 ; strain or isolate: Clinical isolates ; value: 12.5 µg/mL

Again, the opening 4 rows:

smiles	strain or isolate	value
Cc1cccc(C(=O)OC2CC(C)CCC2C(C)C)c1		9.33 µM
CCN=C(Nc1ccc(Br)cc1)N(CC)c1nc2ccc(Br)cc2s1		60–80 µg/mL
O=C(NN1C(=O)/C(=C\c2cccc(Br)c2)SC1c1ccccc1)c1ccc(-c2ccccc2)cc1	MTCC 8189	6.25 µg/mL
Cc1nn(-c2ccccc2)c2c1C(c1ccc(F)cc1)C(C#N)=C(N)O2	MTCC 282	500 µg/mL